A mixed list of measured activities; the numbers were collected in NIAID ChemDB.

Common to all: tests in culture; organism: Mycobacterium tuberculosis

Percent inhibition refers to the dose given; in toxicity tests it is the harm to the cells.

SMILES,strain or isolate,measure,method,tested at,mutations,result
NC(=O)C(=O)N/N=C1/C(=O)N(c2ccc(Cl)cc2Cl)C(=O)C1C(=O)Nc1ccc(Cl)cc1Cl,H37Rv,MIC bound,BACTEC,-,-,>12.5 µg/mL
NC(=O)NN=C(CCC(=O)O)CCC(=O)O,H37Rv,MIC,-,-,-,100 µg/mL
C/C=C(/C)C(=O)OC1CC(C)(C)CC2C3=CCC4C5(C)CC[C@H](O)C(C)(C)C5CC[C@@]4(C)[C@]3(C)CC[C@@]12C(=O)O,H37Rv (streptomycin-resistant),MIC,-,-,-,50 µg/mL
C[N+]1(C)N=C([O-])N(CCCCCCN2C(=O)[N+](C)(C)N=C2[O-])C1=O,H37Rv,inhibition,resazurin,6.25 µg/mL,-,0%
CCCN(C(=O)COc1cc2c(O)c3c(O)c(C)c4c(c13)C(=O)[C@@](C)(O/C=C/[C@H](OC)[C@@H](C)[C@@H](OC(C)=O)[C@H](C)[C@H](O)[C@H](C)[C@@H](O)[C@@H](C)/C=C/C=C(/C)C(=O)N2)O4)N1CCCCC1,-,EC50,-,-,-,0.045 µg/mL
Cc1cc(C)cc(Oc2ccc([N+](=O)[O-])c3cccnc23)c1,H37Rv,MIC,-,-,-,10 µg/mL
CCCN(CCC)N(CCC)C(=O)COc1cc2c(O)c3c(O)c(C)c4c(c13)C(=O)[C@@](C)(O/C=C/[C@H](OC)[C@@H](C)[C@@H](OC(C)=O)[C@H](C)[C@H](O)[C@H](C)[C@@H](O)[C@@H](C)/C=C/C=C(/C)C(=O)N2)O4,-,EC50,-,-,-,0.19 µg/mL
CCCCCCCCC12C(Cl)=C(Cl)C(Cl)(C(Cl)C1CCCCCCCC(=O)NCc1ccccc1)C2(Cl)Cl,H37Rv,MIC bound,resazurin,-,-,>6.25 µg/mL
Cc1cc(O)c(C(C)C)cc1N1C(=O)C(CC(=O)O)SC1c1ccc([N+](=O)[O-])cc1,H37Rv,inhibition,-,100 µg/mL,-,inactive
CC(C)=NNC(=O)CCC1=NNC(=O)CC1,H37Rv,MIC,-,-,-,>500 µg/mL
COC(=O)N[C@H]1[C@@H](C)O[C@@H](O[C@H]2C/C=C(\C)C3C=CC4C([C@@H](C)C[C@H](O[C@@H]5C[C@H](C)[C@H](O)[C@@](O)(C6C[C@@H](O)[C@H](O[C@H]7CC[C@@H](OC)[C@H](C)O7)[C@H](C)O6)C5)[C@@H]4O)[C@]3(C)C(O)=C3C(=O)OC4(CC(C=C(CO)[C@@H]4C)/C=C/2C)C3=O)C[C@]1(C)[N+](=O)[O-],H37Ra,MIC,-,-,-,3.125 µM
COC(=O)c1cnc2ccccc2c1C1C2CC3CC(C2)CC1C3,H37Rv,inhibition,-,6.25 µg/mL,-,11%
NNC(=O)c1ccncc1,INH-R2,MIC,resazurin,-,Isoniazid-resistant,>27 µg/mL
CC(C)(C)c1nc(C(=O)O)c(C(C)(C)C)[nH]1,H37Rv,inhibition,-,6.25 µg/mL,-,0%
CCSN(SCC)C(=S)c1ncnc(NC2CC2)c1[N+](=O)[O-],-,MBC,-,-,-,29.1 µg/mL
CCCCN(CCCC)N(CC)C(=O)COc1cc2c(O)c3c(O)c(C)c4c(c13)C(=O)[C@@](C)(O/C=C/[C@H](OC)[C@@H](C)[C@@H](OC(C)=O)[C@H](C)[C@H](O)[C@H](C)[C@@H](O)[C@@H](C)/C=C/C=C(/C)C(=O)N2)O4,-,EC50,-,-,-,0.09 µg/mL
CCCCCCCCCCCCCCNC1=C(Cl)C(=O)c2ccccc2C1=O,H37Rv,inhibition,BACTEC,12.5 µg/mL,-,-7%
Cc1ccc(-c2n[nH]c(=O)n2-n2c(C)ccc2C)cc1,1075,MIC,-,-,-,2.58 µg/mL
Cc1ccc2nc(Cl)c(C3C(C#N)=C(N)N(Nc4ccccc4)C4=C3C(=O)CC(C)(C)C4)cc2c1,H37Rv,MIC,agar,-,-,12 µg/mL
CC1=NC(=O)C(=Cc2ccc(O)cc2)N1c1cc(C(C)C)c(O)cc1C,H37Rv,inhibition,-,100 µg/mL,-,inactive
Cc1c(C(=O)/C=C/c2ccccc2[N+](=O)[O-])[n+](=O)c2ccccc2n1[O-],EMB-R,MIC,-,-,-,3.1 µg/mL
O=C(O)c1cnc(C2CCCCC2)[nH]1,H37Rv,MIC,-,-,-,>6.25 µg/mL
Cc1ccc(Oc2ccc([N+](=O)[O-])c3cccnc23)cc1C,H37Rv,MIC,-,-,-,1 µg/mL
COC(=O)CCc1cnc(C2CCCCC2)[nH]1,H37Rv,inhibition,-,6.25 µg/mL,-,2%
CC1(C)CC(=O)C2=C(C1)N(Nc1ccc(Br)cc1)C(N)=C(C#N)C2c1cc2ccccc2nc1Cl,H37Rv,MIC,agar,-,-,33 µg/mL
COC(=O)c1cc2ccccc2nc1C1CCCC1,H37Rv,MIC,-,-,-,>6.25 µg/mL
Nc1ccc(Sc2ccc3ccccc3c2)c2ncccc12,H37Rv,MIC,-,-,-,100 µg/mL
O=C1c2ccccc2C(=O)c2sc(Nc3ccc([N+](=O)[O-])cc3)nc21,H37Rv,MIC bound,BACTEC,-,-,≤12.5 µg/mL
COC(=O)Cc1cc(C2CCCC2)nc2ccccc12,H37Rv,MIC,-,-,-,>6.25 µg/mL
Cc1cc(Oc2ccc(N)c3cccnc23)cc(C)c1Cl,H37Rv,MIC,-,-,-,0.1 µg/mL
CCCN(C(=O)COc1cc2c(O)c3c(O)c(C)c4c(c13)C(=O)[C@@](C)(O/C=C/[C@H](OC)[C@@H](C)[C@@H](OC(C)=O)[C@H](C)[C@H](O)[C@H](C)[C@@H](O)[C@@H](C)/C=C/C=C(/C)C(=O)N2)O4)N(CC)CC,-,EC50,-,-,-,0.15 µg/mL
CC1(C)CC(=O)C2=C(C1)N(Nc1ccc(F)cc1)C(N)=C(C#N)C2c1cc2ccccc2nc1Cl,H37Rv,MIC,agar,-,-,62 µg/mL
O=[N+]([O-])c1ccc(/C=C/C(CCN2CCCCC2)=N/O)o1,H37Rv,inhibition,BACTEC,12.5 µg/mL,-,17%
Cc1nc2c(C)cccn2c1C(=O)NNC(=S)Nc1ccc(Br)cc1,H37Rv,MIC,-,-,-,>12.5 µM
CCOC(=O)C1NC(=O)CNC1=O,H37Rv,MIC,BACTEC,-,-,≥12.5 µg/mL
Cc1ccc2nc(Cl)c(C3C(C#N)=C(N)N(Nc4ccc(Br)cc4)C4=C3C(=O)CC(C)(C)C4)cc2c1,H37Rv,MIC,agar,-,-,47 µg/mL
Nc1ccc(C(=O)NN=C(CCC(=O)O)CCC(=O)O)c(O)c1,H37Rv,MIC,-,-,-,50 µg/mL
C/C(=N\Nc1ccc2ccccc2n1)c1ccccc1O,H37Ra,MIC,-,-,-,1.56 µM
COc1cc(C(=O)O)cc2c1OCC(=O)N2,H37Rv,MIC bound,BACTEC,-,-,>12.5 µg/mL
COc1ccc2nc(Cl)c(C3C(C#N)=C(N)N(Nc4ccc(F)cc4)C4=C3C(=O)CC(C)(C)C4)cc2c1,H37Rv,MIC,agar,-,-,22 µg/mL
O=C(O)CC1CCC(=O)N1,H37Rv,MIC,-,-,-,>100 µg/mL
Nc1ccc2[se]nc3c2c1C(=O)c1ccccc1-3,H37Rv,MIC,BACTEC,-,-,6.25 µg/mL
O=[N+]([O-])c1ccccc1Sc1ccc([N+](=O)[O-])c2cccnc12,H37Rv,MIC,-,-,-,200 µg/mL
CO[C@H]1/C=C/O[C@@]2(C)Oc3c(C)c(O)c4c(O)c(c(/C=N/N5CCN(C)CC5)c(O)c4c3C2=O)NC(=O)/C(C)=C\C=C\[C@H](C)[C@H](O)[C@@H](C)[C@@H](O)[C@@H](C)[C@H](OC(C)=O)[C@@H]1C,INH-R1,MIC,resazurin,-,katG mutant isoniazid resistant,0.016 µg/mL
CO[C@H]1/C=C/O[C@@]2(C)Oc3c(C)c(O)c4c(O)c(cc(OCC(=O)NNC(N)=S)c4c3C2=O)NC(=O)/C(C)=C\C=C\[C@H](C)[C@H](O)[C@@H](C)[C@@H](O)[C@@H](C)[C@H](OC(C)=O)[C@@H]1C,-,EC50,-,-,-,0.18 µg/mL
COc1cccc2c1C(=O)c1c(O)c3c(c(O)c1C2=O)C[C@@](O)(C(=O)COC(=O)c1cccnc1)C[C@@H]3O[C@H]1C[C@H](N)[C@H](O)[C@H](C)O1,H37Rv,MIC,BACTEC,-,-,≥12.5 µg/mL
COc1ccccc1C1C(Cl)C(=O)N1c1cc(C(C)C)c(O)cc1C,H37Rv,inhibition,-,100 µg/mL,-,inactive
COC(=O)c1ccc2ccccc2n1,H37Rv,inhibition,-,6.25 µg/mL,-,9%
CCOC(=O)CCC(=O)CCC(=O)OCC,H37Rv,MIC,-,-,-,500 µg/mL
COC(=O)CNC(=O)c1cnc(C2C3CC4CC(C3)CC2C4)[nH]1,H37Rv,inhibition,-,6.25 µg/mL,-,21%
O=[N+]([O-])c1ccc(S(=O)(=O)c2cccc(Cl)c2Cl)c2ncccc12,H37Rv,MIC,-,-,-,>200 µg/mL
CCOC(=O)CCCC/C=N/NC(N)=S,H37Rv,MIC,-,-,-,10 µg/mL
CCCc1cc(C(=O)N/N=C/c2ccccc2OC)c2ccccc2n1,H37Rv,inhibition,BACTEC,12.5 µg/mL,-,29%
CO[C@H]1/C=C/O[C@@]2(C)Oc3c(C)c(O)c4c(O)c(cc(OCC(=O)NN5CCOCC5)c4c3C2=O)NC(=O)/C(C)=C\C=C\[C@H](C)[C@H](O)[C@@H](C)[C@@H](O)[C@@H](C)[C@H](OC(C)=O)[C@@H]1C,-,EC50,-,-,-,0.45 µg/mL
OC(c1cc(C23CC4CC(CC(C4)C2)C3)nc2c(Cl)cc(Cl)cc12)C1CCCCN1,H37Ra,MIC,-,-,-,6.25 µM
CCCCN(C(=O)COc1cc2c(O)c3c(O)c(C)c4c(c13)C(=O)[C@@](C)(O/C=C/[C@H](OC)[C@@H](C)[C@@H](OC(C)=O)[C@H](C)[C@H](O)[C@H](C)[C@@H](O)[C@@H](C)/C=C/C=C(/C)C(=O)N2)O4)N(CCC)CCC,-,EC50,-,-,-,0.075 µg/mL
CC1=CC(=NC(=O)CBr)C=C/C1=N\S(=O)(=O)c1ccccc1,H37Rv,MIC bound,BACTEC,-,-,≤12.5 µg/mL
CCCN(CCC)N(CC)C(=O)COc1cc2c(O)c3c(O)c(C)c4c(c13)C(=O)[C@@](C)(O/C=C/[C@H](OC)[C@@H](C)[C@@H](OC(C)=O)[C@H](C)[C@H](O)[C@H](C)[C@@H](O)[C@@H](C)/C=C/C=C(/C)C(=O)N2)O4,-,EC50,-,-,-,0.18 µg/mL
Cc1ccc(NN2C(N)=C(C#N)C(c3cc4ccccc4nc3Cl)C3=C2CC(C)(C)CC3=O)cc1,H37Rv,MIC,agar,-,-,8 µg/mL
Cc1nnc(NC(=O)c2ccc(Cl)c(Cl)c2)s1,H37Rv,MIC bound,BACTEC,-,-,>12.5 µg/mL
O=C(O)c1cc(C2CCCCC2)nc2ccccc12,H37Rv,inhibition,-,6.25 µg/mL,-,10%
Nc1ccccc1Sc1ccc(N)c2cccnc12,H37Rv,MIC,-,-,-,100 µg/mL
O=C(O)c1nc(C2CCCCC2)[nH]c1C1CCCCC1,H37Rv,inhibition,-,6.25 µg/mL,-,1%
CCC[CH2][Sn]1([CH2]CCC)[O]C(=O)CN=C(C)c2ccccc2[O]1,INH-r,MIC,-,-,-,6.3 µg/mL
Cc1cc(Oc2ccc([N+](=O)[O-])c3cccnc23)ccc1Cl,H37Rv,MIC,-,-,-,10 µg/mL
COC(=O)c1c(C2CCCC2)nc2ccccc2c1C1CCCC1,H37Rv,inhibition,-,6.25 µg/mL,-,97%
CCn1c2ccc(C(=O)CCCN3CCCCC3)cc2c2cc(C(=O)CCCN3CCCCC3)ccc21.Cl.Cl,H37Rv,MIC bound,BACTEC,-,-,>12.5 µg/mL
Cc1cc(O)c(C(C)C)cc1N1C(=O)C(Cl)C1/C=C/c1ccccc1,H37Rv,inhibition,-,100 µg/mL,-,inactive
Cl.Cl.O=[N+]([O-])c1ccc(C(O)CN2CCN(CCO)CC2)cc1,H37Rv,inhibition,BACTEC,12.8 µg/mL,-,24%
Cc1ccc(Sc2ccc([N+](=O)[O-])c3cccnc23)cc1,H37Rv,MIC,-,-,-,100 µg/mL
NC(=S)NN=C(CCC(=O)O)CCC(=O)O,H37Rv,MIC,-,-,-,50 µg/mL
Cc1ccc(NC(=S)NNC(=O)c2c(C)nc3c(C)cccn23)cc1,H37Rv,MIC,-,-,-,>12.5 µM
Cc1cc(O)c(C(C)C)cc1N1C(=O)C(Cl)C1c1ccccc1,H37Rv,inhibition,-,100 µg/mL,-,inactive
O=C1NN2CCCN=C2c2cnccc21,H37Rv,MIC bound,BACTEC,-,-,>12.5 µg/mL
[O-]c1ccccc1CNCCCCCCNCCCCCCCCNCCCCCCNCc1ccccc1[O-],H37Ra,MIC,-,-,-,6.25 µM
CCC1(O)CC2C3C(C(=O)OC)=C4Nc5ccccc5C45CCN(C31)C25.CCC1(O)CC2C3C(C(=O)OC)=C4Nc5ccccc5C45CCN(C31)C25,H37Rv,MIC bound,BACTEC,-,-,>12.5 µg/mL
NC(CCCCC(=O)O)C(=O)O,H37Rv,MIC,-,-,-,>1000 µg/mL
CCn1cc(C(=O)O)c(=O)c2ccc(C)nc21,H37Rv,MIC bound,BACTEC,-,-,>12.5 µg/mL
N#Cc1c(Nc2ccccc2)[n+]([O-])c2ccc(Cl)cc2[n+]1[O-],H37Rv,inhibition,-,12.5 µg/mL,-,99%

The last 8 rows once more:

SMILES | strain or isolate | measure | method | tested at | mutations | result
Cc1ccc(NC(=S)NNC(=O)c2c(C)nc3c(C)cccn23)cc1 | H37Rv | MIC | - | - | - | >12.5 µM
Cc1cc(O)c(C(C)C)cc1N1C(=O)C(Cl)C1c1ccccc1 | H37Rv | inhibition | - | 100 µg/mL | - | inactive
O=C1NN2CCCN=C2c2cnccc21 | H37Rv | MIC bound | BACTEC | - | - | >12.5 µg/mL
[O-]c1ccccc1CNCCCCCCNCCCCCCCCNCCCCCCNCc1ccccc1[O-] | H37Ra | MIC | - | - | - | 6.25 µM
CCC1(O)CC2C3C(C(=O)OC)=C4Nc5ccccc5C45CCN(C31)C25.CCC1(O)CC2C3C(C(=O)OC)=C4Nc5ccccc5C45CCN(C31)C25 | H37Rv | MIC bound | BACTEC | - | - | >12.5 µg/mL
NC(CCCCC(=O)O)C(=O)O | H37Rv | MIC | - | - | - | >1000 µg/mL
CCn1cc(C(=O)O)c(=O)c2ccc(C)nc21 | H37Rv | MIC bound | BACTEC | - | - | >12.5 µg/mL
N#Cc1c(Nc2ccccc2)[n+]([O-])c2ccc(Cl)cc2[n+]1[O-] | H37Rv | inhibition | - | 12.5 µg/mL | - | 99%

"inactive" is the filed call at that dose; no cut-off is given. MIC bound: limit read from a one-dose screen. Rows are shuffled and stem from different studies. An empty or dashed field is not shown. ECn is the concentration giving n% inhibition of infection, replication or growth.